Residue numbers refer to the chain shown, from its start. Human monoclonal antibodies against the spike receptor-binding domain (heavy:light variable regions). IC50 against pseudoviruses bearing the spike of naturally observed variants; lower = stronger; >10 µg/ml means not reached at the top dose. No active / inactive call. The stated detection limit is 0.0005 µg/ml; values near or below 0.001 µg/ml lie at the floor of the assay.
B1: BD56-1283 (protein)
chain 1: EVHLVESGGGLVQPGGSLRLSCAASGFTFSSYDMHWVRQPTGKGLEWVSAIGTAGDTYYPDSVKGRFTSSRENDKKSLFLQMNSLRVGDTAVYYCARAVDCSASNCYSNWYFDLWGRGTLVTVSS
chain 2: DIQMTQSPSSLSASIGDRVTISCRASQSIGRFLHWYQQKPGKAPKLLIYDASTLQSGVTSRFSGGGSGTDFTLTISSLQPEDFATYYCQQSYSTPPITFGQGTRLEIK
B2: BD56-1288 (protein)
chain 1: QVQLQESGPGLVKPSQTLSLTCTVSGGSVRNEVYYWSWIRQPPGKGLEWIGYIHYSGNTYYNPSLKSRVAISVDTSKNHFSLNLNSVTAADTAVYYCARVDVGGRLVSTFDYWGQGTLVTVSS
chain 2: NFMLTQPHSVSESPGMTVTISCTGSSGSIASNYVQWYQQRPGSAPSTVIYENYQRPSGVPNRFSGSIDSSSNSASLTISGLKTEDEADYYCQSYDASNIAVFGGGTQLTVL
B3: BD56-1289 (protein)
chain 1: B2 chain 1 with K13R, V29I, Y55N, V69A, D74E, H79Q, N83K, Y112S
chain 2: B2 chain 2 with S46T, Y53N, N61D, A96D
B4: BD56-1280 (protein)
chain 1: QVQLVESGGGVVQPGRSLRLSCVASGFTFSTYGMHWVRQAPGKGLEWVAVIWHDGSKKDYADSVKGRFTISRDNSKNTLYLQTSSLRAEDTAVYYCARGHYGDEVGYYYFALDVWGQGTTVTVSS
chain 2: QSVLTQPPSVSGAPGQRVTITCTGTSSNIGAPYDVHWYQQLPGTVPKLLIFGDTNRPSGVPDRFSGSKSGTSASLAITGLQAEDEGDYYCQSYDSSLSGWVFGGGTKLTVL
B5: BD56-1277 (protein)
chain 1: QVQLVQSGAEVKKPGASVKVSCKASGYTFSAYYIHWVRQAPGQGLEWMGWIDPNSGGTNYAQKFRARVTMTRDTSISTVFMELSRLRSDDTAVYYCARDSPGSSWSEVNWFDPWGQGTVVTVSS
chain 2: DIQMTQSPSSLSASVGDRVTITCRASQSISSELNWYQQKPGKAPKLLIYAASSLQSGVPSRFTGSGSGTDFTLTISSLQPEDFAYYFCQQSYSTPPWTFGQGTRVEIK
B6: BD56-1275 (protein)
chain 1: QVQLVQSGAEVKKPGSSVKVSCKASGGTFSSYSIVWVRQAPGQGLEWMGRIIPILGVANYAQMFQGRVTITADRSTNTAYLEVSSLRSEDTAVYYCAREIGTTGAPWFIPWGQGTLVIVSS
chain 2: QSVLTQPPSVSGAPGQRVTISCTGSDSNIGAGYDVHWYQKLPGTAPKLLIYGNNNRPSGVPDRFTGSKSDTSVSLAITGLQAEDEADYYCQSYDSGLIGVIFGGGTKLTVL
B7: BD56-1270 (protein)
chain 1: QVQLVQSGAEVKKPGASVKVSCKASGYTFTTYHIHWVRQAPGQGLEWMGIINPSGGGTRYAQKFQGRVTMTGDTSTSTGYMELSSLRSEDTAVYFCARELVAPAAGYMDVWGKGTTVTVSS
chain 2: SYVLTQPPSVSVAPGKTARITCGGNNIGSKSVHWYQQKPGQAPVVVVYDDSDRPSGIPERFSGSNSGNTATLTINRVEAGDEADYYCQVWDTSSDHFYVFGGGTKVTVL

Target: SARS-CoV-2 Omicron BA.1 spike pseudovirus
Experiment: pseudovirus neutralization IC50; higher = weaker neutralization
Description: (§1)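 Single-round VSV luciferase pseudovirus mixed with antibody dilutions for 1 h and put on Huh-7 cells for about a day; IC50 from the dose curve.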

Q: B1 was tested. Which “pseudovirus neutralization IC50” value did it give?
A: Its value is over 10 µg/mL.

Q: With B2 as the binder, how does the “pseudovirus neutralization IC50” value read?
A: Its value is 0.751 µg/mL.

Q: For B3, which “pseudovirus neutralization IC50” value is on record?
A: The value was 0.014 µg/mL.

Q: Which “pseudovirus neutralization IC50” value does the source give for B4 here?
A: Its value is 0.835 µg/mL.

Q: With B5 as the binder, how does the “pseudovirus neutralization IC50” value read?
A: Its value is 3.06 µg/mL.

Q: For B6, which “pseudovirus neutralization IC50” value is on record?
A: The value was 0.0868 µg/mL.

Q: With B7 as the binder, how does the “pseudovirus neutralization IC50” value read?
A: Its value is over 10 µg/mL.

Target: SARS-CoV-2 Omicron BA.2 spike pseudovirus
Experiment: as above
Description: as §1

Q: B1 was tested. Which “pseudovirus neutralization IC50” value did it give?
A: The value was over 10 µg/mL.

Q: B2 was tested. Which “pseudovirus neutralization IC50” value did it give?
A: The value was 0.0376 µg/mL.

Q: Which “pseudovirus neutralization IC50” value does the source give for B3 here?
A: The value was 0.0084 µg/mL.

Q: How did the “pseudovirus neutralization IC50” value turn out when B4 was run?
A: The value was 0.138 µg/mL.

Q: Which “pseudovirus neutralization IC50” value does the source give for B5 here?
A: Its value is 0.0832 µg/mL.

Q: With B6 as the binder, how does the “pseudovirus neutralization IC50” value read?
A: The value was 0.073 µg/mL.

Q: B7 was tested. Which “pseudovirus neutralization IC50” value did it give?
A: Its value is over 10 µg/mL.

Target: SARS-CoV-2 Omicron BA.2.75 spike pseudovirus
Experiment: as above
Description: as §1

Q: With B1 as the binder, how does the “pseudovirus neutralization IC50” value read?
A: Its value is over 10 µg/mL.

Q: Which “pseudovirus neutralization IC50” value does the source give for B2 here?
A: Its value is 0.0442 µg/mL.

Q: B3 was tested. Which “pseudovirus neutralization IC50” value did it give?
A: The value was 0.011 µg/mL.

Q: B4 was tested. Which “pseudovirus neutralization IC50” value did it give?
A: The value was 0.122 µg/mL.

Q: With B5 as the binder, how does the “pseudovirus neutralization IC50” value read?
A: Its value is 3.91 µg/mL.

Q: B6 was tested. Which “pseudovirus neutralization IC50” value did it give?
A: Its value is 0.0773 µg/mL.

Q: For B7, which “pseudovirus neutralization IC50” value is on record?
A: The value was over 10 µg/mL.

Target: SARS-CoV-2 Omicron BA.5 spike pseudovirus
Experiment: as above
Description: as §1

Q: B1 was tested. Which “pseudovirus neutralization IC50” value did it give?
A: Its value is over 10 µg/mL.

Q: How did the “pseudovirus neutralization IC50” value turn out when B2 was run?
A: Its value is 0.0325 µg/mL.

Q: B3 was tested. Which “pseudovirus neutralization IC50” value did it give?
A: Its value is 0.0137 µg/mL.

Q: For B4, which “pseudovirus neutralization IC50” value is on record?
A: Its value is 0.083 µg/mL.

Q: B5 was tested. Which “pseudovirus neutralization IC50” value did it give?
A: Its value is 0.0863 µg/mL.

Q: Which “pseudovirus neutralization IC50” value does the source give for B6 here?
A: The value was 2.48 µg/mL.

Q: Which “pseudovirus neutralization IC50” value does the source give for B7 here?
A: Its value is over 10 µg/mL.

Target: SARS-CoV-2 Omicron BQ.1.1 spike pseudovirus
Experiment: as above
Description: as §1

Q: With B1 as the binder, how does the “pseudovirus neutralization IC50” value read?
A: Its value is over 10 µg/mL.

Q: For B2, which “pseudovirus neutralization IC50” value is on record?
A: The value was 0.126 µg/mL.

Q: Which “pseudovirus neutralization IC50” value does the source give for B3 here?
A: Its value is 0.0167 µg/mL.

Q: For B4, which “pseudovirus neutralization IC50” value is on record?
A: Its value is 0.217 µg/mL.

Q: B5 was tested. Which “pseudovirus neutralization IC50” value did it give?
A: The value was over 10 µg/mL.

Q: Which “pseudovirus neutralization IC50” value does the source give for B7 here?
A: Its value is over 10 µg/mL.

Target: SARS-CoV-2 Omicron XBB spike pseudovirus
Experiment: as above
Description: as §1

Q: B1 was tested. Which “pseudovirus neutralization IC50” value did it give?
A: Its value is over 10 µg/mL.

Q: With B2 as the binder, how does the “pseudovirus neutralization IC50” value read?
A: The value was 0.0921 µg/mL.

Q: For B3, which “pseudovirus neutralization IC50” value is on record?
A: The value was 0.0164 µg/mL.

Q: Which “pseudovirus neutralization IC50” value does the source give for B4 here?
A: The value was over 10 µg/mL.

Q: How did the “pseudovirus neutralization IC50” value turn out when B5 was run?
A: The value was 3.13 µg/mL.

Q: For B7, which “pseudovirus neutralization IC50” value is on record?
A: The value was over 10 µg/mL.

Target: SARS-CoV-2 early D614G spike pseudovirus
Experiment: as above
Description: as §1

Q: B1 was tested. Which “pseudovirus neutralization IC50” value did it give?
A: The value was 2.03 µg/mL.

Q: Which “pseudovirus neutralization IC50” value does the source give for B2 here?
A: Its value is 0.00571 µg/mL.

Q: With B3 as the binder, how does the “pseudovirus neutralization IC50” value read?
A: Its value is 0.0605 µg/mL.

Q: B4 was tested. Which “pseudovirus neutralization IC50” value did it give?
A: The value was 1.24 µg/mL.

Q: B5 was tested. Which “pseudovirus neutralization IC50” value did it give?
A: The value was 0.05 µg/mL.

Q: How did the “pseudovirus neutralization IC50” value turn out when B6 was run?
A: Its value is 0.0568 µg/mL.

Q: How did the “pseudovirus neutralization IC50” value turn out when B7 was run?
A: The value was 1.11 µg/mL.
